# From patent US20230218743A1 (IMMUNITYBIO, published 2023)
# B1: N-612-041 (antibody, V domains shown)
# VH: EVQLVESGGGLVQPGGSLRLSCAASGFTFSSYTMHWVRQAPGKGLEWVSAISGSGGYTYYADSVKGRFTISRDNSKNTLYLQMNSLRAEDTAVYYCARDRDLLWMGWAFDVWGQGTLVTVSS
# VL: DIQMTQSPSSLSASVGDRVTITCQASQDISNYLNWYQQKPGKAPKLLIYDASNLETGVPSRFSGSGSGTDFTFTISSLQPEDIATYYCQQYANWPLTFGQGTKVEIK
# Biological target: T1, SARS-CoV-2 Spike receptor binding domain, wild-type (SARS-CoV-2, UniProt P0DTC2 319-541)
# T1 construct: domain: RBD
# Experiment: Octet, IgG1 on AHC biosensor
binder,measurement,value
B1,binding result,no binding (tested: 2x dilution series starting at 100 nM)
